PubChem BioAssay AID624099 | ICCB-Longwood | 2012

Assay: 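Knock-downs relieving repression by E2 of an HPV18 LCR luciferase reporter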 (primary screen)
System: human C33A cervical carcinoma cells (HPV-negative) stably expressing BPV1 E2 and an HPV18 LCR luciferase reporter
Reagents: siRNA pool against human genes, 40 nM
Timing: 72 h
Read-out: 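HPV18 LCR reporter light per well, converted to plate-wise z-scores that exclude control wells, and averaged over triplicate plates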
Reading the numbers: mean z-score and z-score: higher = stronger reporter signal, weaker E2 silencing
Active means: 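Mean z ≥ 2 together with z ≥ 2 in two or more of the three replicates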
This is an unselected part of about 21,000 reagents. Of all reagents, 497 (2.4%) are marked active. 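Higher z means weaker E2 silencing; only reporter increases were scored, and knock-downs that hurt cell survival may mask genuine repressor factors.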 A number with no mark means an inactive call. No sequences are given here.

no.	target gene	PubChem SID	mean z-score	z-score, replicate A	z-score, replicate B	z-score, replicate C
1	TMCC2 (GeneID 9911)	SID134318352	-1.18	-1.13	-1.11	-1.31
2	COXFA4 (GeneID 4697)	SID134323007	-1.02	-1.24	-1.01	-0.82
3	ZNF500 (GeneID 26048)	SID134325459	-1.1	-1.16	-1.08	-1.06
4	GNG12 (GeneID 55970)	SID134324257	-0.1	-0.2	0.06	-0.16
5	LOC401199 (retired record) (GeneID 401199)	SID134327599	-0.51	-0.54	-0.44	-0.55
6	CTNNB1 (GeneID 1499)	SID134309920	1.31	1.5	1.35	1.09
7	DECR2 (GeneID 26063)	SID134314356	0.38	0.27	0.65	0.23
8	VSTM1 (GeneID 284415)	SID134326826	3.72 (active)	3.52	3.75	3.89
9	RHCE (GeneID 6006)	SID134317417	0.3	0.28	0.48	0.14
10	SUN5 (GeneID 140732)	SID134320783	0.72	0.57	0.84	0.76
11	ZNF138 (GeneID 7697)	SID134324877	-0.6	-0.51	-0.65	-0.63
12	PCGF6 (GeneID 84108)	SID134312207	-0.27	-0.56	-0.41	0.15
13	ARRDC4 (GeneID 91947)	SID134323163	-0.68	-0.64	-0.77	-0.64
14	PRRC1 (GeneID 133619)	SID134322078	0.02	0.36	-0.09	-0.2
15	GPRASP1 (GeneID 9737)	SID134324761	0.15	0.28	0.11	0.05
16	SPATA31G1 (GeneID 138724)	SID134329377	0.08	0.46	0.14	-0.36
17	KRTAP19-2 (GeneID 337969)	SID134322430	-0.4	-0.42	-0.43	-0.36
18	MAD2L2 (GeneID 10459)	SID134309829	-0.02	0.34	-0.41	0.02
19	LOC391303 (retired record) (GeneID 391303)	SID134329113	-0.48	-0.48	-0.21	-0.74
20	OXA1L (GeneID 5018)	SID134316957	0.1	0.17	0.02	0.12
21	GRM5 (GeneID 2915)	SID134311060	-0.62	-0.62	-0.55	-0.69
22	LOC387992 (retired record) (GeneID 387992)	SID134328491	1.32	1.38	1.25	1.33
23	ADAM33 (GeneID 80332)	SID134310506	-0.52	-0.67	-0.42	-0.47
24	KLF13 (GeneID 51621)	SID134312118	-0.74	-0.91	-0.74	-0.57
25	BCAS4 (GeneID 55653)	SID134315077	0.25	0.47	0.36	-0.09
26	DCAF8L2 (GeneID 347442)	SID134321003	-0.9	-1.09	-1.05	-0.56
27	DCAF8L2 (GeneID 347442)	SID134326220	0.95	0.78	1.24	0.83
28	ZNF703 (GeneID 80139)	SID134318694	0.31	0.72	0.21	0.01
29	CENPF (GeneID 1063)	SID134309817	-0.76	-0.83	-0.5	-0.95
30	CRYBG3 (GeneID 131544)	SID134327348	0.57	0.11	0.77	0.84
31	LOC401434 (retired record) (GeneID 401434)	SID134327777	0.06	-0.08	0.09	0.17
32	ANO7L1 (GeneID 101927546)	SID134325313	0.92	1.14	0.99	0.64
33	FAM13A (GeneID 10144)	SID134324208	-1.01	-1.12	-1.06	-0.84
34	FAM13A (GeneID 10144)	SID134327410	1.3	1.54	0.72	1.65
35	CHST10 (GeneID 9486)	SID134314558	1.23	1.49	1.17	1.04
36	LOC392217 (retired record) (GeneID 392217)	SID134327947	-0.02	-0.39	0.33	0
37	SMN2 (GeneID 6607)	SID134317105	-1.41	-1.58	-1.3	-1.36
38	HLA-DQB1 (GeneID 3119)	SID134316008	-0.63	-0.59	-0.7	-0.59
39	SLC37A4 (GeneID 2542)	SID134312603	0.7	0.7	0.6	0.81
40	HIGD1B (GeneID 51751)	SID134320993	-0.15	-0.19	-0.13	-0.12
41	EMCN (GeneID 51705)	SID134319879	-0.01	0.33	-0.04	-0.32

No new results follow: 6 of the entries above.
no.	target gene	PubChem SID	mean z-score	z-score, replicate A	z-score, replicate B	z-score, replicate C
24	KLF13 (GeneID 51621)	SID134312118	-0.74	-0.91	-0.74	-0.57
25	BCAS4 (GeneID 55653)	SID134315077	0.25	0.47	0.36	-0.09
26	DCAF8L2 (GeneID 347442)	SID134321003	-0.9	-1.09	-1.05	-0.56
27	DCAF8L2 (GeneID 347442)	SID134326220	0.95	0.78	1.24	0.83
28	ZNF703 (GeneID 80139)	SID134318694	0.31	0.72	0.21	0.01
29	CENPF (GeneID 1063)	SID134309817	-0.76	-0.83	-0.5	-0.95

The results go on.
no.	target gene	PubChem SID	mean z-score	z-score, replicate A	z-score, replicate B	z-score, replicate C
42	ADGRL3 (GeneID 23284)	SID134311091	-0.2	-0.27	-0.15	-0.19
43	ADAMTSL3 (GeneID 57188)	SID134325391	-0.48	-0.39	-0.47	-0.58
44	IL33 (GeneID 90865)	SID134319175	0.76	1.13	0.66	0.49
45	LOC389656 (retired record) (GeneID 389656)	SID134328004	-0.25	-0.36	-0.2	-0.19
46	LOC390192 (retired record) (GeneID 390192)	SID134328270	-0.22	0.08	-0.44	-0.32
47	NPAT (GeneID 4863)	SID134323377	1.48	1.33	1.8	1.31
48	TERF2IP (GeneID 54386)	SID134324822	0.84	0.58	0.85	1.07
49	NECTIN4 (GeneID 81607)	SID134310378	0.76	0.62	0.96	0.69
50	MROCKI (GeneID 285758)	SID134327620	2.26 (active)	2.32	2.48	1.98
51	LOC389182 (retired record) (GeneID 389182)	SID134327397	0.06	-0.09	0.3	-0.03
52	POLR3E (GeneID 55718)	SID134324418	0.88	0.56	1.04	1.04
53	EMSY (GeneID 56946)	SID134310263	-1.16	-1.16	-1.14	-1.16
54	LINC01142 (GeneID 284688)	SID134327057	-0.68	-0.86	-0.6	-0.59
55	ZNF432 (GeneID 9668)	SID134324045	-0.6	-0.53	-0.66	-0.62
56	CLEC14A (GeneID 161198)	SID134321911	0.31	0.38	0.52	0.03
57	TENM1 (GeneID 10178)	SID134324307	0	0.07	-0.1	0.02
58	PCNT (GeneID 5116)	SID134316461	0.99	1.15	0.99	0.82
59	PHKB (GeneID 5257)	SID134312707	1	0.87	0.8	1.33
60	NUP107 (GeneID 57122)	SID134324141	0.29	-0.08	0.8	0.14
61	RILPL1 (GeneID 353116)	SID134322028	-0.16	-0.55	0.06	0
62	SMO (GeneID 6608)	SID134311156	-0.65	-0.47	-0.81	-0.66
63	LEF1 (GeneID 51176)	SID134319441	1.91	2.22	1.8	1.73
64	RET (GeneID 5979)	SID56478548	-0.01	-0.01	-0.14	0.12
65	MAFG (GeneID 4097)	SID134313939	-1.41	-1.07	-1.68	-1.46
66	MAFG (GeneID 4097)	SID134319043	0.03	0.1	0.22	-0.23
67	GAREM1 (GeneID 64762)	SID134317950	-3.09	-3.28	-3.07	-2.93
68	IL23R (GeneID 149233)	SID134312910	0.13	0.26	0.1	0.03
69	LOC390338 (retired record) (GeneID 390338)	SID134328374	0.16	0.2	0.14	0.14
70	PFKP (GeneID 5214)	SID56479236	-0.54	-0.68	-0.26	-0.69
71	CASKIN2 (GeneID 57513)	SID134318200	0.28	0.15	0.52	0.18
72	PRRT3 (GeneID 285368)	SID134325695	-0.77	-0.95	-0.48	-0.86
73	LOC402436 (retired record) (GeneID 402436)	SID134329221	0.3	0.38	0.3	0.23
